A mixed list of measured activities; the numbers were collected in NIAID ChemDB.

Shared fields: tests on isolated targets

ICn is the concentration giving n% inhibition. Blank or dashed fields: not listed here. a–b is a range or a potency band. Inhibition is in % at the dose shown (toxicity tests: loss of growth or viability). Conditions beyond the fields shown may differ between rows.

structure	measure	tested at	strain or isolate	read by	target	organism	result
CN(C)CCNc1cc(C(=O)Nc2ccc3[nH]ncc3c2)c(F)cc1F	inhibition	0.1 µg/mL	-	-	Reverse transcriptase	Hepatitis B virus	53%
COc1ccc2c(O[C@@H]3C[C@H]4C(=O)C[C@]5(P(=O)(O)Cc6c(F)cccc6F)C[C@H]5CCCCCCC[C@H](CC(=O)OC5CCCC5)C(=O)N4C3)cc(-c3csc(NC(C)C)n3)nc2c1Cl	Ki	-	gt 3	fluorescence	Nonstructural protein 3 protease	Hepatitis C virus	0.104 µM
C[C@H](Cc1ccc(O)c(O)c1)[C@@H](C)Cc1ccc(O)c(O)c1	inhibition	10 µM	gtD	RNase H / substrate cleavage	RNase H	Hepatitis B virus	>43%
Nc1nc2c(ncn2[C@@H]2O[C@H](COP(=O)(O)OP(=O)(O)OP(=O)(O)O)C[C@H]2O)c(=O)[nH]1	IC50	-	-	-	NS5B delta .21	Hepatitis C virus	0.6 µM
CC(C)C[C@@H](NC(=O)CC1(CC(=O)O)CCCC1)C(=O)N[C@H](CC(F)F)C(=O)NCCc1ccc(C(=O)O)cc1Cl	IC50	-	-	-	NS3 serine protease	Hepatitis C virus	21 µM
O=C(Nc1ccc2c(c1)B(O)OC2)N[C@H]1CCCCC/C=C\[C@@H]2C[C@@]2(C(=O)NS(=O)(=O)C2CC2)NC(=O)C2C[C@@H](OC(=O)N3Cc4cccc(F)c4C3)CN2C1=O	IC50	-	-	FRET	HCV NS3/4A 1a	Hepatitis C virus	5.6 nM
O=C(NCCc1ccccc1)c1nc2ccccc2c(=O)n1O	IC50	-	1b	fluorescence	NS5B	Hepatitis C virus	46.1 µM
C=Cc1ccc(C(NC(=O)NC(C)(C)C)C(=O)Nc2cccc(C(=O)NS(=O)(=O)c3ccc(C(F)(F)F)cc3)c2)cc1Oc1cc(OC)nc(-c2ccccc2)n1	Ki	-	GT1a	FRET	Nonstructural protein 3/4A	Hepatitis C virus	0.14 µM
Cc1ccccc1S(=O)(=O)Nc1cc(-c2cnn(S(=O)(=O)N(C)C)c2)sc1C(=O)O	IC50	-	-	-	NS3 ATPase	Hepatitis C virus	5–20 µM
CC(Cc1ccccn1)Nc1cc(C(=O)Nc2ccc3cn[nH]c3c2)c(F)cc1F	inhibition	0.01 µg/mL	-	-	Reverse transcriptase	Hepatitis B virus	25%
CC[C@H](NC(=O)[C@@H](NC(=O)[C@@H](NC(=O)[C@H](CC(C)C)NC(=O)[C@@H](CCC(=O)O)NC(=O)[C@H](CC(=O)O)NC(C)=O)[C@@H](C)CC)C1CCCCC1)C(=O)/C=C/CCCC(C)C	inhibition	10 µM	-	-	HCV NS3 protease	Hepatitis C virus	95%
O=C(O)CN1C(=O)/C(=C/c2ccc(-c3ccccc3)cc2)SC1=S	IC50	-	-	-	Plasmin	Hepatitis C virus	7 µM
NS(=O)(=O)c1ccc(CCNc2cc(C(=O)Nc3ccc4cn[nH]c4c3)c(F)cc2F)cc1	inhibition	1 µg/mL	-	-	Reverse transcriptase	Hepatitis B virus	75%
C[C@@]1(O)[C@H](O)[C@@H](COP(=O)(O)OP(=O)(O)OP(=O)(O)O)O[C@H]1n1ccc2c(=O)[nH]c(N)nc21	IC50	-	-	-	NS5B delta .21	Hepatitis C virus	1.5 µM
O=C(O)c1sc(-c2ccccc2)cc1NS(=O)(=O)c1ccc(Cl)cc1	IC50	-	-	-	NS3 ATPase	Hepatitis C virus	<5 µM
CCC[C@]1(CC(=O)O)OCCc2c1[nH]c1c(C)c(OC[C@H](C)n3cccn3)cc(C#N)c21	IC50	-	BB7	nucleotide incorporation	HCV polymerase	Hepatitis C virus	0.005 µM
O=C(O)c1cc2nc(-c3ccc(Cl)cc3)cc(N3CCCCC3)n2n1	IC50	-	-	-	RNA-dependent RNA polymerase	Hepatitis C virus	>10 µM
CC[C@H](NC(=O)[C@@H](NC(=O)[C@@H](NC(=O)[C@H](CC(C)C)NC(=O)[C@@H](CCC(=O)O)NC(=O)[C@H](CC(=O)O)NC(C)=O)[C@@H](C)CC)C1CCCCC1)C(=O)/C=C/c1ccccc1	inhibition	10 µM	-	-	HCV NS3 protease	Hepatitis C virus	96%
O=C(O)c1cc2nc(-c3ccc(Oc4ccccc4)cc3)c(-c3ccccc3)cn2n1	IC50	-	-	-	RNA-dependent RNA polymerase	Hepatitis C virus	1–10 µM
O=C(Nc1ccc2[nH]ncc2c1)c1cc(NCCO)c(F)cc1F	inhibition	0.01 µg/mL	-	-	Reverse transcriptase	Hepatitis B virus	43%
O=C(O)c1cc2nc(-c3ccc(Cl)cc3Cl)cc(-c3cccc(F)c3)n2n1	IC50	-	-	-	RNA-dependent RNA polymerase	Hepatitis C virus	>10 µM
C=CCCCS(=O)(=O)NC(=O)c1cccc(NC(=O)C(NC(=O)OC(C)(C)C)c2ccc(C=C)c(Oc3cc(OC)nc(-c4ccccc4)n3)c2)c1	Ki	-	GT1a	FRET	Nonstructural protein 3/4A	Hepatitis C virus	0.21 µM
COC(=O)Oc1nsnc1N1CCOCC1	inhibition	10 µM	gtH	RNase H / substrate cleavage	RNase H	Hepatitis B virus	>43%
CO/N=C\c1cnn2c(C3CCCCC3)c(-c3ccc(OCc4ccccc4)cc3)cnc12	IC50	-	-	-	RNA-dependent RNA polymerase	Hepatitis C virus	>10 µM
C=CCN(C(=O)c1ccc(C)cc1)c1cc(-c2ccc(/C=C/C(=O)O)cc2)sc1C(=O)O	IC50	-	-	-	NS3 ATPase	Hepatitis C virus	<5 µM
Nc1nc2c(ccn2[C@@H]2O[C@H](COP(=O)(O)OP(=O)(O)OP(=O)(O)O)[C@@H](O)[C@@H]2O)c(=O)[nH]1	IC50	-	-	-	NS5B delta .21	Hepatitis C virus	6.6 µM
O=C(NCc1cccc(Cl)c1)c1nc2ccccc2c(=O)n1O	IC50	-	1b	fluorescence	NS5B	Hepatitis C virus	25.6 µM
C[C@@]1(O)[C@H](O)[C@@H](COP(=O)(O)OP(=O)(O)OP(=O)(O)O)O[C@H]1n1ccc2c(N)ncnc21	IC50	-	-	-	NS5B delta .21	Hepatitis C virus	17 µM
NC(=O)c1c(N)sc2c1CCCCC2	inhibition	10 µM	gtH	RNase H / substrate cleavage	RNase H	Hepatitis B virus	>43%
O=C(Nc1ccc2cn[nH]c2c1)c1cc(NCCN2CCOCC2)c(F)cc1F	inhibition	1 µg/mL	-	-	Reverse transcriptase	Hepatitis B virus	40%
COc1ccc2ccccc2c1/C=N/NC(=O)c1cc(O)c(O)c(O)c1	inhibition	10 µM	gtH	RNase H / substrate cleavage	RNase H	Hepatitis B virus	<24%
c1cc(-c2cnc3c(-c4nn[nH]n4)cnn3c2C2CCCCC2)ccc1OC1CCCCC1	IC50	-	-	-	RNA-dependent RNA polymerase	Hepatitis C virus	<1 µM
O=C(NCc1ccc(Cl)cc1)c1nc2ccccc2c(=O)n1O	IC50	-	1b	fluorescence	NS5B	Hepatitis C virus	44.5 µM
C=CCCCS(=O)(=O)NC(=O)c1ccc(NC(=O)C(NC(=O)OC(C)(C)C)c2ccc(C=C)c(Oc3cc(OC)nc(-c4ccccc4)n3)c2)cc1	Ki	-	GT1a	FRET	Nonstructural protein 3/4A	Hepatitis C virus	0.22 µM
CCOC(=O)c1cnn2c(C3CCCCC3)c(-c3ccc(OCc4ccccc4)cc3)cnc12	IC50	-	-	-	RNA-dependent RNA polymerase	Hepatitis C virus	>10 µM
O=C(NCc1ccccc1)c1nc2ccccc2c(=O)n1O	IC50	-	1b	fluorescence	NS5B	Hepatitis C virus	28.2 µM
O=C(O)c1sc(-c2ccccc2)cc1NS(=O)(=O)c1ccc(C(F)(F)F)cn1	IC50	-	-	-	NS3 ATPase	Hepatitis C virus	5–20 µM
Cc1sc2nc(-c3ccc([N+](=O)[O-])cc3)[nH]c(=O)c2c1C	inhibition	10 µM	gtD	RNase H / substrate cleavage	RNase H	Hepatitis B virus	<24%
C=CCCCS(=O)(=O)NC(=O)c1cccc(NC(=O)C(NC(=O)OC2CCCC2)c2ccc(C=C)c(Oc3cc(OC)nc(-c4ccccc4)n3)c2)c1	Ki	-	GT1a	FRET	Nonstructural protein 3/4A	Hepatitis C virus	0.13 µM
CC(C)(C)c1ccc(CN(C(=O)C2CC2)c2cc(-c3ccccc3)sc2C(=O)O)cc1	IC50	-	-	-	NS3 ATPase	Hepatitis C virus	5–20 µM
CC[C@H](NC(=O)[C@@H](NC(=O)[C@@H](NC(=O)[C@H](CC(C)C)NC(=O)[C@@H](CCC(=O)O)NC(=O)[C@H](CC(=O)O)NC(C)=O)[C@@H](C)CC)C1CCCCC1)C(=O)O	inhibition	1 µM	-	-	HCV NS3 protease	Hepatitis C virus	17%
O=C(NCCCc1ccccc1)c1nc2ccccc2c(=O)n1O	IC50	-	1b	fluorescence	NS5B	Hepatitis C virus	8.8 µM
O=C(N[C@H]1CCCCC/C=C\[C@@H]2C[C@@]2(C(=O)NS(=O)(=O)C2CC2)NC(=O)C2C[C@@H](OC(=O)N3Cc4cccc(F)c4C3)CN2C1=O)c1ccc2c(c1)B(O)OC2	IC50	-	-	FRET	HCV NS3/4A 1a	Hepatitis C virus	1 nM
O=C(O)c1cc2nc(-c3cccc(Oc4ccccc4)c3)cc(NCc3ccc(Cl)cc3)n2n1	IC50	-	-	-	RNA-dependent RNA polymerase	Hepatitis C virus	1–10 µM
O=C(NCc1ccc(Cl)c(Cl)c1)c1nc2ccccc2c(=O)n1O	IC50	-	1b	fluorescence	NS5B	Hepatitis C virus	28.1 µM

For reference, 4 entries again:

{"structure": "CN(C)CCNc1cc(C(=O)Nc2ccc3[nH]ncc3c2)c(F)cc1F", "measure": "inhibition", "tested at": "0.1 µg/mL", "target": "Reverse transcriptase", "organism": "Hepatitis B virus", "result": "53%"}
{"structure": "CC(C)(C)c1ccc(CN(C(=O)C2CC2)c2cc(-c3ccccc3)sc2C(=O)O)cc1", "measure": "IC50", "target": "NS3 ATPase", "organism": "Hepatitis C virus", "result": "5–20 µM"}
{"structure": "COc1ccc2ccccc2c1/C=N/NC(=O)c1cc(O)c(O)c(O)c1", "measure": "inhibition", "tested at": "10 µM", "strain or isolate": "gtH", "read by": "RNase H / substrate cleavage", "target": "RNase H", "organism": "Hepatitis B virus", "result": "<24%"}
{"structure": "O=C(Nc1ccc2c(c1)B(O)OC2)N[C@H]1CCCCC/C=C\\[C@@H]2C[C@@]2(C(=O)NS(=O)(=O)C2CC2)NC(=O)C2C[C@@H](OC(=O)N3Cc4cccc(F)c4C3)CN2C1=O", "measure": "IC50", "read by": "FRET", "target": "HCV NS3/4A 1a", "organism": "Hepatitis C virus", "result": "5.6 nM"}